Three compounds from PMC6747051, “Screening of Antiviral Components of Ma Huang Tang and Investigation on the Ephedra Alkaloids Efficacy on Influenza Virus Type A” (Frontiers in Pharmacology, 2019) can be followed below.

The data set has as its system influenza A virus. The data set is described as follows: Antiviral activity assay in vitro with four ways of drug delivery (MTT, MDCK cells). In kind it is cell-based, influenza virus A/PR8/34 (H1N1).

The structures appear in SMILES notation. “And” between values parts separate entries of the source, which are not always exact repeats. Identical values can stand only once. Like-named read-outs stand apart in the source and are kept apart here.

In the case of `CN[C@@H](C)[C@@H](O)c1ccccc1` [DPEP, D-pseudoephedrine], the TI is 29.04 and 31.33 and 39.27 and 50.81.

Take `CN[C@@H](C)[C@H](O)c1ccccc1` [LEP, L-ephedrine]: the TI is 19.64 and 30.13 and 34.26 and 38.02.

Regarding `C[C@@H]([C@H](O)c1ccccc1)N(C)C` [LMEP, L-methylephedrin], the TI is recorded as 10.64 (TI = TC50/EC50, Blocking viruses invading host cells); 28.71 (TI = TC50/EC50, Directly inhibiting virus); 32.58 (TI = TC50/EC50, Inhibiting the biosynthesis of virus); 27.61 (TI = TC50/EC50, Intervening the adsorption of virus).
